Anti-infective test results gathered from many reports (values: NIAID ChemDB through PubChem).

All rows: host cell toxicity; cell line: HFF; endpoint: CC50

CCn is the concentration with n% toxicity to the cells. Blank or dashed fields: not listed here. Conditions beyond the fields shown may differ between rows.

SMILES | method | result
CCCOc1nc(N)nc2c1ncn2/C=C1/C[C@@H]1CO | neutral red | >300 µM
O=C(Nc1ccc(NC(=S)Nc2cc(C(F)(F)F)cc(C(F)(F)F)c2)cc1)c1ccco1 | MTS | ≥10 µg/mL
Cc1ccc(CNC(=O)[C@@H](NC(=O)[C@H](CCc2ccccc2)NC(=O)[C@H](CCc2ccccc2)N(C)C)C(C)C)cc1 | resazurin | 14 µM
COC(C)c1cn([C@H]2C[C@H](O)[C@@H](CO)O2)c(=O)[nH]c1=O |  | >195 µM
O=C(Nc1ccc(NC(=S)Nc2ccc(C(F)(F)F)c(Cl)c2)cc1)c1ccccn1 | MTS | ≥10 µg/mL
C=C(C)[C@@H]1CCc2c(O)c(O)c(=O)cc(C)c2C1 | MTT | >100 µM
CCCCCCCCSc1nc(N)nc2c1ncn2/C=C1/C[C@@H]1CO | neutral red | 164 µM
Cc1ccc(CNC(=O)[C@@H](NC(=O)[C@H](CCc2ccccc2)NC(=O)[C@H](CCc2ccccc2)N(C)Cc2cnccn2)C(C)C)cc1 | resazurin | 61 µM
COC(=O)C(Cc1c[nH]c2ccccc12)NP(=O)(O)OCC1C/C1=C/n1cnc2c(N)ncnc21 |  | 111 µM
OCC(CO)OCn1c(Cl)nc2cc(Cl)c(Cl)cc21 | visual reading | >100 µM
Nc1nc(SC2CCCC2)c2ncn(/C=C3/C[C@@H]3CO)c2n1 | neutral red | >300 µM
OC[C@H]1O[C@@H](n2c(Br)nc3cc(Cl)c(Cl)cc32)[C@H](O)[C@@H]1O |  | 188 µM
CN[C@H]1C[C@@H](n2cnc3c(N)ncnc32)[C@H](O)[C@@H]1O |  | 100 µg/mL
O=C(Nc1ccc(NC(=S)Nc2cc(C(F)(F)F)cc(C(F)(F)F)c2)cc1)c1csnn1 | MTS | ≥10 µg/mL
CCO[C@@H]1[C@@H](OCC)[C@H](Cc2ccccc2)O[C@@H]2CO[C@@H](c3ccc(Cl)cc3)O[C@@H]12 |  | >100 µg/mL
[N-]=[N+]=NC(CCl)c1cn([C@H]2C[C@H](O)[C@@H](CO)O2)c(=O)[nH]c1=O |  | >300 µM
CCN(C)c1ccc(Oc2ccc(O)cc2)cc1 | XTT | 95 µM
Nc1nc2c(Cl)cc(Cl)cc2n1COCCO | visual reading | 100 µM
Cc1ccc(CNC(=O)[C@H](CCc2ccccc2)NC(=O)[C@@H](N)CCc2ccccc2)cc1 | resazurin | >50 µM
COc1nc(N)nc2c1ncn2/C=C1/C[C@@H]1CO | neutral red | >300 µM
Nc1nc(NC2CC2)c2ncn(C=C3CC3CO)c2n1 | neutral red | 327 µM
CCCCCCSc1nc(N)nc2c1ncn2/C=C1/C[C@@H]1CO | neutral red | >300 µM
COc1cc2[nH]c(C)c(-c3ccc(Oc4ccc(OC(F)(F)F)cc4)cc3)c(=O)c2cc1F | absorbance | 37.8 µM
COC(=O)[C@H](C)NP(=O)(OC[C@H]1C/C1=C/n1cnc2c(OC)nc(N)nc21)Oc1ccccc1 | neutral red | 33.3 µM
O=C(O)c1cn(C2CC2)c2nc(N3CCN(c4ccccn4)CC3)ccc2c1=O | MTT | 151.8 µM
CC(C)CSc1nc(N)nc2c1ncn2/C=C1/C[C@@H]1CO | neutral red | >300 µM
Nc1nc2ncn(/C=C3/C(F)C3(CO)CO)c2c(=O)[nH]1 |  | >100 µM
OCC(CO)OCn1c(=S)[nH]c2c(Cl)cc(Cl)cc21 | visual reading | >100 µM
O[C@@H]1[C@H](O)[C@H](O)CO[C@H]1n1c(Br)nc2cc(Cl)c(Cl)cc21 |  | 179 µM
O=C(O)c1cn(C2CC2)c2nc(N3CCN(c4nc5ccccc5s4)CC3)ccc2c1=O | MTT | 15.3 µM
Cc1ccc(CNC(=O)[C@H](CC(C)C)NC(=O)[C@H](CCc2ccccc2)NC(=O)c2cnc(C)cn2)cc1 | resazurin | 35 µM
CCc1cn([C@H]2C[C@H](O)[C@@H](CO)O2)c(=O)[nH]c1=O |  | >170 µM
Cc1cc(C)c(OC(=O)c2ccc(Cl)cc2)c(=O)c(C)c1 | MTT | >100 µM
CCCCCCCC/C=C\CCCCCCCOCCCOP(=O)(O)CO[C@H](CO)Cn1ccc(N)nc1=O | neutral red | 87 µM
CC(=O)NC(CCc1ccc(Cl)c(Cl)c1)c1cccc(O)c(=O)c1 | MTT | >100 µM
COc1ccccc1N1CCN(c2cc3c(cc2N)c(=O)c(C(=O)O)cn3C2CC2)CC1 | MTT | 300.8 µM
CCCCCCCCCCCCCCCCCCOCCCOP(=O)(O)CO[C@H](CO)Cn1ccc(N)nc1=O | neutral red | 44 µM
C=CCO[C@]1(C)C[C@@H](C)CN[C@H](C)[C@@H](O)[C@](C)(O)[C@@H](CC)OC(=O)[C@H](C)[C@@H](O[C@H]2C[C@@](C)(OC)[C@@H](O)[C@H](C)O2)[C@H](C)[C@H]1O[C@@H]1O[C@H](C)C[C@H](N(C)C)[C@H]1O | MTS | 74 µM